Laboratory results: article PMC11672137, “High-Affinity Lectin Ligands Enable the Detection of Pathogenic Pseudomonas aeruginosa Biofilms: Implications for Diagnostics and Therapy” (JACS Au, 2024)

The chains behind the UniProt entries cited, without tags or fusion partners. Residues count along the entry.
UniProt Q9HYN5, 2-115 limits assumed: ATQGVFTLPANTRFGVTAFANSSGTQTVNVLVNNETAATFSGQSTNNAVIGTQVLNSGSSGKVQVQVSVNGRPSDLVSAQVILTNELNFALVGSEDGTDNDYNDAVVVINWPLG
UniProt Q05097, whole entry: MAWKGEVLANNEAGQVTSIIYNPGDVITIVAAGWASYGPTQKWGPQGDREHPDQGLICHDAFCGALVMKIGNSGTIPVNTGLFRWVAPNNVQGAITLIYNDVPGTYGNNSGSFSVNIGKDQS

Experiments:
LecB = LecB (Pseudomonas aeruginosa, UniProt Q9HYN5); assay: Competitive binding assay based on fluorescence polarization, LecB; details: reporter ligand S39, less than 0.5% DMSO
LecA = LecA (Pseudomonas aeruginosa, UniProt Q05097); assay: Competitive binding assay based on fluorescence polarization, LecA; details: LecA 20 µM, reporter ligand S38, 2% DMSO
Procedure: Next, binding of the optimized divalent ligand 17 and its synthetic precursor 16 to LecA was evaluated by fluorescence polarization-based (FP) assays,[47] SPR, and ITC. […] Therefore, fluorescent ligand 17 was analyzed in a direct binding experiment by FP. […] The dissociation constants for 16 were 47.2 ± 11.3 nM (ITC) and 47.8 ± 44.1 nM (steady-state SPR), while for 17, the values were 64.1 ± 31.1 nM and 79.3 ± 24.9 nM (steady-state SPR). For the SPR experiments, Kd was also determined by single-cycle kinetic analysis resulting in approximately five times higher affinity, but the data have limited reliability due to suboptimal fit for the kinetic curves (Figures S13B and S14).[58]−[60] […]
137 mM NaCl, 2.6 mM KCl at pH 7.4 supplemented with 1 mM CaCl2). Protein concentration was determined by UV spectroscopy at 280 nm using a molar extinction coefficient of 27 960 M-1 cm-1 for LecA and 6 990 M-1 cm-1 for LecB.
All synthesized alkyne precursors (S5m, S5p, S6m, S6p, S11, 25, S16, S22 and S24) were analysed in the previously established competitive binding assays based on fluorescence polarization (Figure S2).18,19 Galactose-based compounds (S5m, S5p, S6m, S6p, S11) were evaluated against LecA and C-glycoside-based compounds […] and S16 against LecB. […]
PheraStar FS plate reader (BMG Labtech GmbH, Germany) with excitation filters at 485 nm and emission filters at 535 nm. […]

Structure (SMILES): C#CCNc1ccc(S[C@@H]2OC[C@@H](O)[C@H](O)[C@H]2O)cc1 [S20]
- IC50 (competitive binding, FP) (LecB): n.b.
- IC50 (competitive binding, FP) (LecA): n.b.

Structures were worked out from names or drawings and are uncertain.
